In patent US20070224205A1 (published 2007):

Molecular target: Toll-like Receptor 5 (UniProt O60602 21-858)
Experiment: cell-based or functional assay

B1: STF2.4×H1C1 (other)
chain: MAQVINTNSLSLLTQNNLNKSQSALGTAIERLSSGLRINSAKDDAAGQAIANRFTANIKGLTQASRNANDGISIAQTTEGALNEINNNLQRVRELAVQSANSTNSQSDLDSIQAEITQRLNEIDRVSGQTQFNGVKVLAQDNTLTIQVGANDGETIDIDLKQINSQTLGLDSLNVQKAYDVKDTAVTTKAYANNGTTLDVSGLDDAAIKAATGGTNGTASVTGGAVKFDADNNKYFVTIGGFTGADAAKNGDYEVNVATDGTVTLAAGATKTTMPAGATTKTEVQELKDTPAVVSADAKNALIAGGVDATDANGAELVKMSYTDKNGKTIEGGYALKAGDKYYAADYDEATGAIKAKTTSYTAADGTTKTAANQLGGVDGKTEVVTIDGKTYNASKAAGHDFKAQPELAEAAAKTTENPLQKIDAALAQVDALRSDLGAVQNRFNSAITNLGNTVNNLSEARSRIEDSDYATEVSNMSRAQILQQAGTSVLAQANQVPQNVLSLLAMEWENIPSIQSRGLFGAIAGFIEEWENIPSIQSRGLFGAIAGFIEEWENIPSIQSRGLFGAIAGFIEEWENIPSIQSRGLFGAIAGFIE
B1 was tested. Which “in vitro TLR5 activity (EC50); IL-8 secretion by HEK293 cells” value did it give?
The value was ~100 fold (EC50 relative to STF2.OVA).
